# Source: PubChem BioAssay AID504761 (Drosophila RNAi Screening Center, 2011)
# Assay: 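Fly genes whose silencing reduces dengue virus type 2 infection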 (primary screen)
# Cells: D.Mel-2 cells from Drosophila
# Reagent: long dsRNA against Drosophila genes
# Treatment: infection with dengue virus type 2; dose and infection time not stated
# Read-out: 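Cells stained for dengue envelope protein and imaged; percent of infected cells per well on duplicate plates, ranked by infection, with stained nuclei counted for cell number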
# Direction: infection score: higher = more virus-infected cells; cell count: higher = more cells in the well
# Active means: 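Low infection ranks in the two replicates (chance level up to 0.065) followed by a retest with a 1.5-fold or larger significant decrease, p below 0.05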
# Calls: active = confirmed: knock-down lowers infection; inactive = not picked or not confirmed
# In all, the deposit lists about 22,000 reagents; shown is an unselected part of those with a known target gene and a result. Over the whole deposit, 116 (0.52%) were called active. 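Calls depend on retest data that are not deposited; infection was ranked per plate without normalising between plates; the unit of the infection score is not given.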 Raw values are not corrected between plates. A plus sign joins genes that one reagent is predicted to hit. Not stated in the record: the amount of reagent, the time to read-out.
gene knocked down,amplicon,"infection score, replicate 1","infection score, replicate 2","cell count, replicate 1","cell count, replicate 2",Outcome
spo,DRSC11127,0.3,2.62,5759,5453,inactive
Ppn,DRSC15328,1.92,1.39,6150,6348,inactive
Ppn,DRSC27718,4.98,31.3,6747,5220,inactive
Taf9,DRSC20326,15.5,6.55,6078,6215,inactive
Taf9,DRSC25903,12.8,6.05,5365,6064,inactive
CG4610,DRSC04477,8.27,8.31,5924,6053,inactive
CG4610,DRSC22397,1.95,8.83,5911,6707,inactive
CG4610,DRSC29602,19.8,3.69,3468,623,inactive
noi,DRSC12383,13.6,10.1,1182,1637,inactive
noi,DRSC26152,13.9,22.6,1299,1776,inactive
Ir75b,DRSC10189,4.02,3.79,6397,6462,inactive
Rdh,DRSC08063,5.02,3.94,4844,4440,inactive
MME1,DRSC02714,7.33,1.27,5891,6166,inactive
TwdlK,DRSC24969,3.63,14.8,5847,4403,inactive
CG4733,DRSC15634,,8.92,265,4989,inactive
CG9674,DRSC11088,7.43,5.4,5986,6668,inactive
CG9674,DRSC11089,2.83,1.65,5644,6466,inactive
Itpr,DRSC12354,4.07,5.62,5482,6205,inactive
Itpr,DRSC28770,11.8,0.24,1539,420,inactive
yellow-h,DRSC17141,,,404,363,inactive
Tgi,DRSC09793,2.73,1.17,6709,6825,inactive
Tgi,DRSC09794,0.64,0.49,6051,6561,inactive
Tgi,DRSC25518,10,9.78,5941,4623,inactive
Ucp4A,DRSC19996,0.93,1.8,6267,6504,inactive
Ucp4A,DRSC27013,6.35,1.92,6235,6200,inactive
CG12071,DRSC22972,1.07,3.06,6800,6968,inactive
vig2,DRSC14402,2.23,1.28,6514,6477,inactive
vig2,DRSC30012,9.92,4.05,6511,6292,inactive
HemK2 + Snapin,DRSC00736,3.37,1.27,6177,6200,inactive
IFT57,DRSC00720,4.28,5.2,6046,6523,inactive
CG13409,DRSC14585,1.05,2.44,6380,5904,inactive
ect,DRSC10675,25.7,20.4,6327,6223,inactive
ect,DRSC11343,1.93,1.95,5705,5331,inactive
ect,DRSC22357,3.93,4.09,6469,7069,inactive
ect,DRSC27880,16.2,6.62,6608,6659,inactive
RpL36,DRSC18708,1.14,2.21,1137,770,inactive
CG8065,DRSC10959,2.59,3.62,5822,5972,inactive
Acsl,DRSC07252,4.42,8.68,5902,5648,inactive
CG4497,DRSC02754,2.82,7.36,6267,5218,inactive
Acp95EF,DRSC14102,7.13,5.14,6259,6619,inactive
Nup160 + RfC38,DRSC01997,24.6,14.2,6126,6011,inactive
snk,DRSC17060,1.18,7.47,6466,6261,inactive
CG4927,DRSC06903,5.75,9.21,6760,5894,inactive
CG4927,DRSC28614,14.5,10.7,5270,3718,inactive
Ntan1,DRSC07546,4.12,3.41,6332,6737,inactive
PGRP-SC1a,DRSC06482,2.92,11.1,6709,3741,inactive
CG43867,DRSC17836,5.23,2.3,1338,6918,inactive
CG43867,DRSC17837,,13.8,443,6213,inactive
CG43867,DRSC17943,8.12,10.6,3339,5322,inactive
CG43867,DRSC28000,18.8,4.46,6261,6462,inactive
Nhe3,DRSC03380,3.68,1.29,6192,6505,inactive
Ggt-1,DRSC19993,1.4,2.71,6792,5908,inactive
Ggt-1,DRSC27144,8.77,16,6405,6338,inactive
CG8010,DRSC20072,12.6,2.32,6366,7082,inactive
CG8010,DRSC26277,4.16,4.93,5914,6148,inactive
Pex11c,DRSC14677,1.14,3.16,7217,6396,inactive
Pxt,DRSC17040,1.02,0.06,5690,6557,inactive
NdufA3,DRSC18431,9.16,19.4,5971,5750,inactive
